Measured values from several laboratories, pooled; numbers as filed in NIAID ChemDB.

Common to all: growth or infection tests; agent: Candida albicans; endpoint: MIC

Neighbouring rows are from separate reports.

structure	strain or isolate	value
CN1CCC2=C(CCCC2CCc2cccc(Cl)c2)C1	2005E	8 µg/mL
CCc1cc(C(=O)O)c(=O)n2cc(F)c(N3CCC(N)C3)c(C)c12.Cl	CCH442	>100 µg/mL
Clc1cccc(CCC2CCCc3cnccc32)c1	C316	31 µg/mL
Cc1c(N2CCC(n3ccnn3)C2)c(F)cn2c(=O)c(C(=O)O)cc(C3CC3)c12	CCH442	>100 µg/mL
CC1=C(N2CCC(N)(C(F)(F)F)C2)C(F)=CN2C(=O)C(C(=O)O)=CC(C3CC3)C12	CCH442	>100 µg/mL
C[C@H](CCC(=O)NCCNCCNC(=O)CC[C@@H](C)[C@H]1CCC2C3CCC4C[C@H](O)CC[C@]4(C)C3C[C@H](C)[C@@]21O)[C@H]1CCC2C3CCC4C[C@H](O)CC[C@]4(C)C3C[C@H](C)[C@@]21O	Isolate 1	0.012 µM
CN1CCC2=C(CCCC2CCc2ccc(F)cc2)C1	2402E	31 µg/mL
Cc1c(N2CCC(NC3CC3)C2)c(F)cn2c(=O)c(C(=O)O)cc(C3CC3)c12	CCH442	25 µg/mL
CC(Cc1ccc(C(C)(C)C)cc1)CN1CC(C)OC(C)C1	YAG171 (genotype RBP1/RBP1)	3.12 µg/mL
Cc1c(N2CC[C@@H](C3CC3N)C2)c(F)cn2c(=O)c(C(=O)O)cc(C3CC3)c12	CCH442	>100 µg/mL
CCCCCCCCC[C@@H](O)[C@H](C)N	MTCC 3958	19.8 µM
Cc1c(N2CCC(N)CC2)c(F)cn2c(=O)c(C(=O)O)cc(C3CC3)c12	CCH442	>100 µg/mL
CC1=C(CCCc2ccccc2)CCN(C)C1	C316	31 µg/mL
COC1CN(c2c(F)cn3c(=O)c(C(=O)O)cc(C4CC4)c3c2C)CC1N.Cl	CCH442	>100 µg/mL
C[C@@H](c1nc(-c2ccc(C#N)cc2)cs1)[C@](O)(Cn1cnnc1)c1ccc(F)cc1F	A28924	0.25 µg/mL
Cc1c(N2C[C@@H](CN)[C@H](C(F)(F)F)C2)c(F)cn2c(=O)c(C(=O)O)cc(C3CC3)c12.Cl	CCH442	>100 µg/mL
CN1CCC2=C(CCCC2CCc2ccc(Cl)cc2Cl)C1	2402E	62 µg/mL
Cc1c(N2CCCC(C(N)=O)C2)c(F)cn2c(=O)c(C(=O)O)cc(C3CC3)c12	CCH442	>100 µg/mL
CN1CCC2=C(CCCC2CCc2ccccc2Cl)C1	2005E	62 µg/mL
CNCC1CN(c2c(F)cn3c(=O)c(C(=O)O)cc(C4CC4)c3c2C)CCO1.Cl	CCH442	>100 µg/mL
c1ccc(CC2CCCc3cnccc32)cc1	2005E	16 µg/mL
CNCC1CCCN(c2c(F)cn3c(=O)c(C(=O)O)cc(C4CC4)c3c2C)C1.Cl	CCH442	>100 µg/mL
Cc1c(N2CC(CN(C)C)CC3CCCC32)c(F)cn2c(=O)c(C(=O)O)cc(C3CC3)c12.Cl	CCH442	100 µg/mL
Clc1ccc(CCC2CCCc3cnccc32)cc1	2005E	8 µg/mL
Cc1c(N2CCc3ccccc3C2)c(F)cn2c(=O)c(C(=O)O)cc(C3CC3)c12	CCH442	>100 µg/mL